Our source for the OD S/N and Ave OD values is patent US20040229298A1.

Where “and” joins values, the source holds several entries; their conditions need not be identical. Equal values may be shown once.

Assay [1] concerns the target T1, HPV16 E6 PDZ ligand peptide (biotinylated C-terminal peptide of the E6 protein of HPV 16) (human papillomavirus 16). In words: G assay ELISA, signal over GST-only well.
For assay [2], the target named is T1, HPV16 E6 PDZ ligand peptide …. In words: G assay ELISA, immobilised GST-PDZ, 10 uM biotinylated peptide. In general terms: ELISA stands for enzyme-linked immunosorbent assay.

B1: GST-KIAA0147 PDZ domain 3 fusion protein (protein)
chain: MSPILGYWKIKGLVQPTRLLLEYLEEKYEEHLYERDEGDKWRNKKFELGLEFPNLPYYIDGDVKLTQSMAIIRYIADKHNMLGGCPKERAEISMLEGAVLDIRYGVSRIAYSKDFETLKVDFLSKLPEMLKMFEDRLCHKTYLNGDHVTHPDFMLYDALDVVLYMDPMCLDAFPKLVCFKKRIEAIPQIDKYLKSSKYIAWPLQGWQATFGGGDHPPKSDLIEGREIRLPRAGGPLGLSIVGGSDHSSHPFGVQEPGVFISKVLPRGLAARSGLRVGDRILAVNGQDVRDATHQEAVSALLRPCLELSLLVRRDP
Regarding B1, the OD S/N in assay [1] is 11.8 and 4.35. Further, in assay [2], the Ave OD was 2.08 A450 nm and 1.07 A450 nm.

B2: GST-PSD95 PDZ domain 2 fusion protein (protein)
chain: MSPILGYWKIKGLVQPTRLLLEYLEEKYEEHLYERDEGDKWRNKKFELGLEFPNLPYYIDGDVKLTQSMAIIRYIADKHNMLGGCPKERAEISMLEGAVLDIRYGVSRIAYSKDFETLKVDFLSKLPEMLKMFEDRLCHKTYLNGDHVTHPDFMLYDALDVVLYMDPMCLDAFPKLVCFKKRIEAIPQIDKYLKSSKYIAWPLQGWQATFGGGDHPPKSDLIEGREIKLIKGPKGLGFSIAGGVGNQHIPGDNSIYVTKIIEGGAAHKDGRLQIGDKILAVNSVGLEDVMHEDAVAALKNTYDVVYLKVAKP
With B2, the OD S/N in assay [1] was 12.2 and 12.5. Further, the Ave OD in assay [2] is 2.7 A450 nm and 1.31 A450 nm.

B3: GST-DLG2 #290.1 PDZ domain 2 fusion protein (protein)
chain: MSPILGYWKIKGLVQPTRLLLEYLEEKYEEHLYERDEGDKWRNKKFELGLEFPNLPYYIDGDVKLTQSMAIIRYIADKHNMLGGCPKERAEISMLEGAVLDIRYGVSRIAYSKDFETLKVDFLSKLPEMLKMFEDRLCHKTYLNGDHVTHPDFMLYDALDVVLYMDPMCLDAFPKLVCFKKRIEAIPQIDKYLKSSKYIAWPLQGWQATFGGGDHPPKSDLIEGREIKLFKGPKGLGFSIAGGVGNQHIPGDNSIYVTKIIDGGAAQKDGRLQVGDRLLMVNNYSLEEVTHEEAVAILKNTSEVVYLKVGNP
Regarding B3, in assay [1], the OD S/N is 9.17 and 13.4. Moreover, in assay [2], the Ave OD is 1.78 A450 nm and 1.44 A450 nm.

B4: GST-Outer Membrane PDZ domain 1 fusion protein (protein)
chain: MSPILGYWKIKGLVQPTRLLLEYLEEKYEEHLYERDEGDKWRNKKFELGLEFPNLPYYIDGDVKLTQSMAIIRYIADKHNMLGGCPKERAEISMLEGAVLDIRYGVSRIAYSKDFETLKVDFLSKLPEMLKMFEDRLCHKTYLNGDHVTHPDFMLYDALDVVLYMDPMCLDAFPKLVCFKKRIEAIPQIDKYLKSSKYIAWPLQGWQATFGGGDHPPKSDLIEGRLLTEEEINLTRGPSGLGFNIVGGTDQQYVSNDSGIYVSRIKENGAAALDGRLQEGDKILSVNGQDLKNLLHQDAVDLFRNAGYAVSLRVQHRLQVQNGIHS
As for B4, in assay [1], the OD S/N was 11.4 and 6.25. In addition, the Ave OD in assay [2] is 2.39 A450 nm and 1.36 A450 nm.

B5: GST-Magi2 PDZ domain 1 fusion protein, Q86UL8 17-101 (protein)
chain: MSPILGYWKIKGLVQPTRLLLEYLEEKYEEHLYERDEGDKWRNKKFELGLEFPNLPYYIDGDVKLTQSMAIIRYIADKHNMLGGCPKERAEISMLEGAVLDIRYGVSRIAYSKDFETLKVDFLSKLPEMLKMFEDRLCHKTYLNGDHVTHPDFMLYDALDVVLYMDPMCLDAFPKLVCFKKRIEAIPQIDKYLKSSKYIAWPLQGWQATFGGGDHPPKSDLIEGRREKPLFTRDASQLKGTFLSTTLKKSNMGFGFTIIGGDEPDEFLQVKSVIPDGPAAQDGKMETGDVIVYINEVCVLGHTHADVVKLFQSVPIGQSVNLVLCRGYP
Turning to B5, in assay [1], the OD S/N was 11.6 and 7.23. For the same molecule, in assay [2], the Ave OD is 2.39 A450 nm and 1.06 A450 nm.

B6: GST-KIAA0147 PDZ domain 1 fusion protein (protein)
chain: MSPILGYWKIKGLVQPTRLLLEYLEEKYEEHLYERDEGDKWRNKKFELGLEFPNLPYYIDGDVKLTQSMAIIRYIADKHNMLGGCPKERAEISMLEGAVLDIRYGVSRIAYSKDFETLKVDFLSKLPEMLKMFEDRLCHKTYLNGDHVTHPDFMLYDALDVVLYMDPMCLDAFPKLVCFKKRIEAIPQIDKYLKSSKYIAWPLQGWQATFGGGDHPPKSDLIEGRTLTILRQTGGLGISIAGGKGSTPYKGDDEGIFISRVSEEGPAARAGVRVGDKLLEVNGVALQGAEHHEAVEALRGAGTAVQMRVWRER
For B6, the OD S/N in assay [1] was 21.3 and 8.71. The Ave OD in assay [2] is 3.76 A450 nm and 2.15 A450 nm.

B7: GST-MAGI 1 PDZ domain 2 fusion protein (protein)
chain: MSPILGYWKIKGLVQPTRLLLEYLEEKYEEHLYERDEGDKWRNKKFELGLEFPNLPYYIDGDVKLTQSMAIIRYIADKHNMLGGCPKERAEISMLEGAVLDIRYGVSRIAYSKDFETLKVDFLSKLPEMLKMFEDRLCHKTYLNGDHVTHPDFMLYDALDVVLYMDPMCLDAFPKLVCFKKRIEAIPQIDKYLKSSKYIAWPLQGWQATFGGGDHPPKSDLIEGRHTKLRKSSRGFGFTVVGGDEPDEFLQIKSLVLDGPAALDGKMETGDVIVSVNDTCVLGHTHAQVVKIFQSIPIGASVDLELCR
Turning to B7, the OD S/N in assay [1] stood at 19.5. In assay [2], this molecule showed an Ave OD of 4.11 A450 nm.

B8: GST-KIAA0973 #288.2 PDZ domain 1 fusion protein (protein)
chain: MSPILGYWKIKGLVQPTRLLLEYLEEKYEEHLYERDEGDKWRNKKFELGLEFPNLPYYIDGDVKLTQSMAIIRYIADKHNMLGGCPKERAEISMLEGAVLDIRYGVSRIAYSKDFETLKVDFLSKLPEMLKMFEDRLCHKTYLNGDHVTHPDFMLYDALDVVLYMDPMCLDAFPKLVCFKKRIEAIPQIDKYLKSSKYIAWPLQGWQATFGGGDHPPKSDLIEGRGLRSPITIQRSGKKYGFTLRAIRVYMGDTDVYSVHHIVWHVEEGGPAQEAGLCAGDLITHVNGEPVHGMVHPEVVELILKSGNKVAVTTTPFE
B8: in assay [1], the OD S/N is 16.4 and 10.1. Also, the Ave OD in assay [2] was 3.85 A450 nm and 2.83 A450 nm.

B9: GST-DLG1 PDZ domain 2 fusion protein (protein)
chain: MSPILGYWKIKGLVQPTRLLLEYLEEKYEEHLYERDEGDKWRNKKFELGLEFPNLPYYIDGDVKLTQSMAIIRYIADKHNMLGGCPKERAEISMLEGAVLDIRYGVSRIAYSKDFETLKVDFLSKLPEMLKMFEDRLCHKTYLNGDHVTHPDFMLYDALDVVLYMDPMCLDAFPKLVCFKKRIEAIPQIDKYLKSSKYIAWPLQGWQATFGGGDHPPKSDLIEGRIQLIKGPKGLGFSIAGGVGNQHIPGDNSIYVTKIIEGGAAHKDGKLQIGDKLLAVNNVCLEEVTHEEAVTALKNTSDFVYLKVAKP
Regarding B9, the OD S/N in assay [1] was 6.63 and 2.76.

B10: GST-DLG2 PDZ domain 3 fusion protein (protein)
chain: MSPILGYWKIKGLVQPTRLLLEYLEEKYEEHLYERDEGDKWRNKKFELGLEFPNLPYYIDGDVKLTQSMAIIRYIADKHNMLGGCPKERAEISMLEGAVLDIRYGVSRIAYSKDFETLKVDFLSKLPEMLKMFEDRLCHKTYLNGDHVTHPDFMLYDALDVVLYMDPMCLDAFPKLVCFKKRIEAIPQIDKYLKSSKYIAWPLQGWQATFGGGDHPPKSDLIEGRKVVLHKGSTGLGFNIVGGEDGEGIFVSFILAGGPADLSGELQRGDQILSVNGIDLRGASHEQAAAALKGAGQTVTIIAQYQ
Regarding B10, the OD S/N in assay [1] was 20.4 and 8.53. Also, the Ave OD in assay [2] was 3.43 A450 nm and 1.27 A450 nm.

B11: GST-KIAA1095 PDZ domain 1 fusion protein (protein)
chain: MSPILGYWKIKGLVQPTRLLLEYLEEKYEEHLYERDEGDKWRNKKFELGLEFPNLPYYIDGDVKLTQSMAIIRYIADKHNMLGGCPKERAEISMLEGAVLDIRYGVSRIAYSKDFETLKVDFLSKLPEMLKMFEDRLCHKTYLNGDHVTHPDFMLYDALDVVLYMDPMCLDAFPKLVCFKKRIEAIPQIDKYLKSSKYIAWPLQGWQATFGGGDHPPKSDLIEGRTLVLHRDSGSLGFNIIGGRPSVDNHDGSSSEGIFVSKIVDSGPAAKEGGLQIHDRIIEVNGRDLSRATHDQAVEAFKTAKEPIVVQVLRRT
B11: the OD S/N in assay [1] is 13.1 and 7.96. The Ave OD in assay [2] was 2.7 A450 nm and 1.71 A450 nm.

B12: GST-KIAA1634 PDZ domain 1 fusion protein (protein)
chain: MSPILGYWKIKGLVQPTRLLLEYLEEKYEEHLYERDEGDKWRNKKFELGLEFPNLPYYIDGDVKLTQSMAIIRYIADKHNMLGGCPKERAEISMLEGAVLDIRYGVSRIAYSKDFETLKVDFLSKLPEMLKMFEDRLCHKTYLNGDHVTHPDFMLYDALDVVLYMDPMCLDAFPKLVCFKKRIEAIPQIDKYLKSSKYIAWPLQGWQATFGGGDHPPKSDLIEGRPSQLKGVLVRASLKKSTMGFGFTIIGGDRPDEFLQVKNVLKDGPAAQDGKIAPGDVIVDINGNCVLGHTHADVVQMFQLVPVNQYVNLTLCRGYPLPDDSED
In the case of B12, the OD S/N in assay [1] was 19 and 19.4. In addition, the Ave OD in assay [2] was 3.46 A450 nm and 3.34 A450 nm.

B13: GST-TIP1 PDZ domain 1 fusion protein (protein)
chain: MSPILGYWKIKGLVQPTRLLLEYLEEKYEEHLYERDEGDKWRNKKFELGLEFPNLPYYIDGDVKLTQSMAIIRYIADKHNMLGGCPKERAEISMLEGAVLDIRYGVSRIAYSKDFETLKVDFLSKLPEMLKMFEDRLCHKTYLNGDHVTHPDFMLYDALDVVLYMDPMCLDAFPKLVCFKKRIEAIPQIDKYLKSSKYIAWPLQGWQATFGGGDHPPKSDLIEGRQRVEIHKLRQGENLILGFSIGGGIDQDPSQNPFSEDKTDKGIYVTRVSEGGPAEIAGLQIGDKIMQVNGWDMTMVTHDQARKRLTKRSEEVVRLLVTRQSLQK
For B13, the OD S/N in assay [1] is 8.24 and 5.67. Also, the Ave OD in assay [2] was 1.62 A450 nm and 0.576 A450 nm.

B14: GST-TIP 43 #264.1 PDZ domain 1 fusion protein (protein)
chain: MSPILGYWKIKGLVQPTRLLLEYLEEKYEEHLYERDEGDKWRNKKFELGLEFPNLPYYIDGDVKLTQSMAIIRYIADKHNMLGGCPKERAEISMLEGAVLDIRYGVSRIAYSKDFETLKVDFLSKLPEMLKMFEDRLCHKTYLNGDHVTHPDFMLYDALDVVLYMDPMCLDAFPKLVCFKKRIEAIPQIDKYLKSSKYIAWPLQGWQATFGGGDHPPKSDLIEGRISNQKRGVKVLKQELGGLGISIKGGKENKMPILISKIFKGLAADQTQALYVGDAILSVNGADLRDATHDEAVQALKRAGKEVLLEVKYMREATPYV
As to B14, the OD S/N in assay [1] is 8.5 and 8.76. In assay [2], the Ave OD is 1.88 A450 nm and 0.915 A450 nm.

B15: GST-KIAA0807 PDZ domain 1 fusion protein (protein)
chain: MSPILGYWKIKGLVQPTRLLLEYLEEKYEEHLYERDEGDKWRNKKFELGLEFPNLPYYIDGDVKLTQSMAIIRYIADKHNMLGGCPKERAEISMLEGAVLDIRYGVSRIAYSKDFETLKVDFLSKLPEMLKMFEDRLCHKTYLNGDHVTHPDFMLYDALDVVLYMDPMCLDAFPKLVCFKKRIEAIPQIDKYLKSSKYIAWPLQGWQATFGGGDHPPKSDLIEGRISALGSMRPPIIIHRAGKKYGFTLRAIRVYMGDSDVYTVHHMVWHVEDGGPASEAGLRQGDLITHVNGEPVHGLVHTEVVELILKSGNKVAISTTPLENSS
Consider B15, for which the OD S/N in assay [1] is 23.2 and 11.4. Besides, the Ave OD in assay [2] was 3.91 A450 nm and 1.69 A450 nm.
